Assay results reported in paper PMC11153131, “Crimean–Congo haemorrhagic fever virus uses LDLR to bind and enter host cells” (2024).

Molecular target: recombinant LDLR protein, extracellular domain, immobilised on the QCM chip (human) (UniProt P01130)
Experiment: quartz crystal microbalance (QCM)

Substance: combination of CCHFV Gc and Gn (added together) (complex)
- Kd: 0.272 nM
- koff: 8.67e-06 s⁻¹
- kon: 21000 M⁻¹ s⁻¹
